# Assay results as given in PubChem BioAssay AID720580 (National Center for Advancing Translational Sciences (NCATS), 2013).
# This is a selection; strong and weak results do not stand in their true shares. Inconclusive results are not listed. The source made the active and inactive calls. Calls come from the whole dose curve; tested in A549 cells.
# Assay: qHTS for Stage-Specific Inhibitors of Vaccinia Orthopoxvirus: Venus Reporter Primary qHTS; note: nearly all actives have a fitted effect of over 30% in size
# Conditions: Vaccinia virus Venus reporter expression, fluorescence
# Potency is the fitted concentration of half-maximal effect.
row,Structure (SMILES),Potency
1,CC(=O)O[C@H]1C[C@@H]2OC3C=C(C)CCC3(C)[C@@]1(C)[C@@]21CO1 (some centres not stated),active: 1260 nM
2,CC(O)C1C=CC=CC(=O)OC2CC3OC4C5OC5(C)C(O)CC4(COC(=O)C(O)C(C)CCO1)C2(C)C31CO1 (configuration not stated),active: 1000 nM
3,CC1=CC2OC3CC4OC(=O)C=CC=CC(C(C)O)OCC(O)C5(C)OC5C(=O)OCC2(CC1O)C4(C)C31CO1 (configuration not stated),active: 316 nM
4,C[C@H]1[C@@H](OS(=O)(=O)O)C[C@@H]2C[C@H]([C@@H](O)c3cc(=O)[nH]c(=O)[nH]3)NC3=NC[C@H]1N32,active: 3160 nM
5,CC1=CC2OC3CC4OC(=O)C=CC=CC(=O)OCCC(C)C(O)C(=O)OCC2(CC1)C4(C)C31CO1 (configuration not stated),active: 8910 nM
6,C=C(C=O)CC1CC(O)[C@]2(C)OC3CC4OC5C[C@]6(C)O[C@]7(C)CCC8OC9C[C@]%10(C)OC%11C(C)=CC(=O)OC%11CC%10OC9C[C@@H](C)C8OC7CC6O[C@]5(C)CC5OC5C4OC3CC2O1 (some centres not stated),active: 11200 nM
7,CC(O)C1C=CC=CC(=O)OC2CC3OC4C5OC5(C)CCC4(COC(=O)C4OC4(C)C(O)CO1)C2(C)C31CO1 (configuration not stated),active: 316 nM
